Test results taken from US8173610B2 (priority 2005, dated 2012).

System: HCV
Assay: Inhibition of HCV replication in chronically HCV-infected human PBMC (RT-PCR)
Description: In addition, the inhibition of HCV replication by epirubicin hydrochloride (BNE00), N3′-acetylepirubicin (BNE01), and N3′,O4′,O14-triacetylepirubicin (BNE02) were analyzed in chronically HCV-infected human peripheral blood monocyte cells (PBMC) cultures which was performed as follows. PBMC were isolated from HCV-infected patients blood by Ficoll Pague centrifugation placed on Petri dishes and cultured in 10% FCS, RPMI medium containing PHA (3 μg/ml) according to Laskus et al. (J Infect Dis. 2000) and enriched with known concentrations of BNE00, BNE01, BNE02 in standard conditions (37° C., 5% CO2). On day 5 and 14 of the culture the cells were collected and after extraction, HCV RNA was […] estimated by real-time Reverse Transcriptase Polymerase Chain Reaction using SYBR Green system (FIG. 3). Semiquantitative estimation of HCV RNA was also performed by Reverse Transcriptase Polymerase Chain Reaction, and visualized after electrophoresis through a 1% agarose gel, using ethidium bromide staining (FIG. 4).

| SMILES | Therapeutic Index in PBMC TI90 CC90/IC90 |
| --- | --- |
| COc1cccc2c1C(=O)c1c(O)c3c(c(O)c1C2=O)C[C@@](O)(C(=O)CO)C[C@@H]3O[C@H]1C[C@@H](NC(C)=O)[C@H](O)[C@H](C)O1 [BNE01, N3′-acetyl-4′-epidoxorubicin] | 194.0 |
| COc1cccc2c1C(=O)c1c(O)c3c(c(O)c1C2=O)CC(O)(C(=O)COC(C)=O)CC3OC1CC(NC(C)=O)C(OC(C)=O)C(C)O1 (centres unmarked) [BNE02, N3′, O4′, O14-triacetyl-4′-epidoxorubicin] | 240.0 |
